Paper PMC4339892 (2015)

Biological target: T1, FLAG-gB^23–431 (EBV glycoprotein B residues 23-431, CendR motif exposed) (Epstein-Barr virus, UniProt P03188 23-431)
T1 chain: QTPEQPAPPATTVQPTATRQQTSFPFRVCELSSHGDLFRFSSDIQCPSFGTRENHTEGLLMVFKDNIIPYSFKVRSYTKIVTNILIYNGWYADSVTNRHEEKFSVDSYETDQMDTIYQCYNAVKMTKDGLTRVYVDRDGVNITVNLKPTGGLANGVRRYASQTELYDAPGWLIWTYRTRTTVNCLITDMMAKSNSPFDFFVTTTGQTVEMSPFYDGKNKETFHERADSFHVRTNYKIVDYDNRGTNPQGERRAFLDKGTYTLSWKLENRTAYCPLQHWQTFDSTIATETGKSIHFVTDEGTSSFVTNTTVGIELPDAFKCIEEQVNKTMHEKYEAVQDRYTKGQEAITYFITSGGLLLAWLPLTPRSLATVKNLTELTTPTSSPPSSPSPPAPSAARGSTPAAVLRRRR
Test: ELISA

B1: GST-NRP2^ABC (soluble extracellular ABC domain of NRP2) (domain or fragment)
chain: GGRLNSKDAGYITSPGYPQDYPSHQNCEWIVYAPEPNQKIVLNFNPHFEIEKHDCKYDFIEIRDGDSESADLLGKHCGNIAPPTIISSGSMLYIKFTSDYARQGAGFSLRYEIFKTGSEDCSKNFTSPNGTIESPGFPEKYPHNLDCTFTILAKPKMEIILQFLIFDLEHDPLQVGEGDCKYDWLDIWDGIPHVGPLIGKYCGTKTPSELRSSTGILSLTFHTDMAVAKDGFSARYYLVHQEPLENFQCNVPLGMESGRIANEQISASSTYSDGRWTPQQSRLHGDDNGWTPNLDSNKEYLQVDLRFLTMLTAIATQGAISRETQNGYYVKSYKLEVSTNGEDWMVYRHGKNHKVFQANNDATEVVLNKLHAPLLTRFVRIRPQTWHSGIALRLELFGCRVTDAPCSNMLGMLSGLIADSQISASSTQEYLWSPSAARLVSSRSGWFPRIPQAQPGEEWLQVDLGTPKTVKGVIIQGARGGDSITAVEARAFVRKFKVSYSLNGKDWEYIQDPRTQQPKLFEGNMHYDTPDIRRFDPIPAQYVRVYPERWSPAGIGMRLEVLGCDWTDSKPTVETLGPTVKSEETTTPYPTEEEATECGENCSFEDDKDLQLPSGFNCNFDFLEEPCGWMYDHAKWLRTTWASSSSPNDRTFPDDRNFLRLQSDSQREGQYARLISPPVHLPRSPVCMEFQYQATGGRGVALQVVREASQESKLLWVIREDQGGEWKHGRIILPSYDMEYQIVFEGVIGKGRSGEIAIDDIRISTDVPLENCME[about 40 residues not spelt out]
  EC50: 4.24 nM

B2: GST-NRP1^ABC (soluble extracellular ABC domain of NRP1) (domain or fragment)
chain: [about 600 residues not spelt out]TYGFNCEFGWGSHKTFCHWEHDNHVQLKWSVLTSKTGPIQDHTGDGNFIYSQADENQKGKVARLVSPVVYSQNSAHCMTFWYHMSGSHVGTLRVKLRYQKPEEYDQLVWMAIGHQGDHWKEGRVLLHKSLKLYQVIFEGEIGKGNLGGIAVDDISINNHISQEDCAKPADLDKKNPEIKIDETGSTPGYEGEGEGDKNISRKPGNVLKTLDPILITII
  EC50: 15.8 nM
